## Library screen at single concentrations

From ChEMBL document CHEMBL3988442, “University of Dundee, Small-Polar-MMV Screening Library” (2021).

Mtb glucose medium: 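Whole-cell growth test on Mycobacterium tuberculosis, read after 3 days in glucose-containing 7H9 medium; the read-out is not stated. Concentration: 50 µM. Direction is inferred from retests: higher values go with more growth inhibition. About 69,000 compounds were tested under these conditions; 1.1% (about 760) showed 50% or more at least once.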
Mtb cholesterol medium: 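Whole-cell growth test on Mycobacterium tuberculosis, read after 4 days in a medium based on cholesterol and the lipid DPPC; the read-out is not stated. Compounds at 50 µM. Direction is inferred from retests: higher values go with more growth inhibition. About 69,000 compounds were tested under these conditions; 0.54% (about 370) showed 50% or more at least once.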

Results are given as percent effect. How 0% and 100% were set is not recorded. Most values in the screen are low, and negative values occur. This is part of a subset picked to be rich in strong results. Two or more numbers in one place are separate tests of the same structure; such repeats can differ widely. A dash means the value is not listed here; it may have been measured.

structure	Mtb glucose medium	Mtb cholesterol medium
COc1cc(NCC(=O)NC(C)(C#N)C(C)C)cc(OC)c1OC (centres undefined)	-12.55	1.375
CC(C)c1ccc(O)c(C(=O)NC2CCN(c3ncccn3)CC2)c1	56.77 and 51.15	-
Cc1nnc(NCc2ccc(Br)cc2)o1	-1.768 and 3.046	-
CNS(=O)(=O)Cc1ccc(CNC(=O)c2ccccn2)cc1	17.41	-
CC(=O)NCC(Cc1cccc(F)c1)n1cccc1 (centres undefined)	8.141 and 65.8	-
CCN(CC)S(=O)(=O)c1ccc(CNC(=O)c2cc(C)on2)cc1	-	50.49
COc1ccc(C[C@H]2CN(C(=O)CN(C)C)CC[C@H]2OC)cc1.O=C(O)C(F)(F)F	-	54.35
COc1ccc(C2CC(=O)Nc3nc(N4CCOCC4)sc32)c(OC)c1 (centres undefined)	46.37	-
CN(Cc1ccon1)C1CCN(c2cccc(-c3cscn3)c2)CC1	26.09	-
Cc1ccc(N2CCOCC3(CCCN(c4ncc(F)cn4)C3)C2)nn1 (centres undefined)	10.87	-
O=C(CCC1CCCC1)N1CCC(c2ncc3c(n2)CCNC3)CC1	41.09	-
COc1ccc(S(=O)(=O)NCc2cccnc2N(C)C)cc1	-14.04	-
CC(C)COc1ccccc1C(N)CC(C)C (centres undefined)	37.44 and 2.642	18.36
CC(NCCn1c(=O)oc2ccccc21)c1ccccn1 (centres undefined)	-	-25.19
CCN(C)c1ccc(C(=O)NCCCc2ccccn2)cn1	5.883	-
COc1cccc(CN(C)C(=O)c2csc(-c3nnc[nH]3)n2)c1	-	-6.483 and -5.001
Cc1ccc(CNC(c2ccccc2)c2nccn2C)cc1C (centres undefined)	39.82	-
CO[C@H]1CCN(c2nnc(C)s2)C[C@@H]1Cc1cccc(C)c1.O=C(O)C(F)(F)F	55.12 and 44.17	32.34
Cc1c(Br)cccc1C(=O)NCc1cnn(C)c1	-28.57	-
CCn1c(SCC(N)=O)nnc1-c1csc2c1CCCC2	-5.57	-39.91
CN1CCCCCC1C(=O)NCCCn1ncc2ccccc21 (centres undefined)	-0.5853	-8.156
COc1cnc(C2(O)CCN(C(=O)c3cccnc3)CC2)c(OC)n1	-	76.64
O=C(NCCc1c[nH]c2ccc(F)cc12)C1(n2cnnn2)CCCCC1	52.16	48.06
O=C(O)C(F)(F)F.[H][C@@]12CN(Cc3ccco3)C[C@]1([H])C(=O)N(c1ccsc1)C2	64.39	41.31
CCOc1ccc(CN2CCc3nc4ccsc4c(=O)n3CC2)cc1.Cl	54.15	50.05
Cc1ccc(CNCC2Cn3nnc(-c4cccc(F)c4)c3CO2)o1.O=C(O)C(F)(F)F (centres undefined)	52.68 and 37.98	-
Fc1ccc(OC2CCN(CCn3cncn3)CC2)cc1	-8.97 and 1.797	-10.15
CCOCCN(C)C(c1cccnc1)c1ccc(F)cc1F (centres undefined)	-	90.94 and 1.96
CN(Cc1ccccc1)CC1(O)CCCN(CCC2CCCCC2)C1=O (centres undefined)	90.7	-
CN(C)S(=O)(=O)N1CCC(Oc2ccccn2)CC1	13.64	-1.896
CCn1cncc1CNc1ccc(-c2nc(CC(C)C)no2)cn1	43.12 and 36.31	-
Cc1cc2c(=O)n(CC(=O)N3CCn4cccc4C3C(C)C)cnc2s1 (centres undefined)	-	-7.561 and 3.43
CCN(Cc1noc(CC(C)C)n1)Cc1ccccc1Cl	45.52	-
c1cnnc(N2CCCC2CNCc2nc3ccccc3o2)c1 (centres undefined)	55.87	51.27
CC(C)Cc1cc(NC(=O)c2ccccn2)n(C)n1	57.67	-
Cc1noc(CNc2cc3c(cc2Cl)OCCCO3)n1	-6.32 and 7.401	-
COc1ccc(Cl)cc1NCC(=O)NCCNc1ncccn1	0.6942 and -2.521	-
CC(O)c1cccc(N2CCC3(CC2)Nc2ccccc2NC3=O)n1 (centres undefined)	-	1.62
CSc1ncnc(NCc2ccco2)c1C#N	-3.598 and 15.27	-6.124
COC(=O)C(NC(=O)c1ccc(NC2CC2)nc1)c1ccccc1 (centres undefined)	27.73 and 49.27	33.76
Fc1cnc(N2CCOCC3(CCCN(c4cnccn4)C3)C2)nc1 (centres undefined)	69.89	-
Cc1nnc(CN(C)C(=O)C(CC(C)C)N2CCCCC2=O)n1C (centres undefined)	-	14.37
Cc1nc(CCN2CCC(Oc3ccccc3F)CC2)cs1	5.116	-
CCNc1ncc2c(n1)CN(c1ccc(CC)cc1)C2=O	133.1	-
O=C1NCC2(CCCN(C(=O)c3c[nH]nc3-c3cccs3)C2)O1 (centres undefined)	97.71 and -10.44	-
CCc1ccc(NC(=O)c2ncc(C(N)=O)cc2Cl)cc1F	15.26	-
Cc1cccc(OCCSCCn2nc3ccccn3c2=O)c1	-	-17.54
CC(C)C[C@H](N)COc1cccc(F)c1Oc1ccccc1	23.35	15.45
[H][C@]12CN(C(=O)c3ccno3)CCN1C(=O)N(Cc1ccc(C)cc1)C2	-12.05 and 4.08	-
CN1CCN(Cc2noc(CCc3nc(-c4ccccc4)no3)n2)CC1	-33.48	-
CCN(Cc1cc(F)c(OC)c(Cl)c1)Cc1nc(COC)no1	21.34	-
CCNC(=O)c1ccnc(N2CCCC(COc3ccccc3C)C2)c1 (centres undefined)	33.13 and 8.376	15.97
CCCOc1cc(C)ccc1NC(=O)N(C)C	-	0.4143
CCN1CC(COC(=O)c2ccc(Br)cc2F)CC1=O (centres undefined)	55	-
CC(C)(C)C(=O)N1CCC(COCc2ccccc2)C1 (centres undefined)	-1.977	-
CCNC(=O)N1CCC(n2ccc(C(F)(F)F)n2)CC1	-0.5876	-
CCOc1nn(CC)cc1-c1nnc(SCc2cccnc2)n1C	-0.9283 and -7.324	-
CCOc1ncccc1CN1Cc2ncccc2C1=O	-3.068	-
O=C(c1cc(C2CC2)on1)N1CCC(Oc2ncccc2Cl)CC1	42.19 and 41.79	-
COc1cccc(-c2noc3c2CN(c2nc(C)ncc2C)CC3)c1	56.68	-
Cn1cc(NC(=O)c2ccccn2)cc(Cl)c1=O	-	-8.821
OCc1cc2ccccc2nc1N1CCCCC1	-13.24	-33.12
O=C(O)C(F)(F)F.c1cc(-c2ccc3c(c2)CCC32CCN(c3nncs3)CC2)ccn1	-8.736	-
O=C(CSCC1CC1)N1CCCN(c2ccc(F)cc2)CC1	17.09 and 2.03	-10.52
COCCNS(=O)(=O)c1cccc2c1CN(C(=O)c1ccoc1)CC2	97.94 and -7.849	-
Cc1ccc(O)c(CN(CCCn2ccnc2)Cc2ccc(C)s2)c1.O=C(O)CC(O)(CC(=O)O)C(=O)O	53.05	-
Cc1nc(C2CCCN(C(=O)c3cc4c(s3)CCCC4)C2)no1 (centres undefined)	10.11 and 51.1	-
O=C(O)[C@@H]1CN(C(=O)NCC2CCCCC2)C[C@H]1c1ccccn1	-	8.983 and 55.74
CN(C1CCCCC1)S(=O)(=O)N1CCN(Cc2ccco2)CC1	-3.413 and 8.808	-
CCS(=O)(=O)c1ccc2c(c1)OCCO2	-9.839	-
CN(C)C(=O)c1ccc(NCCNc2ccc3ccccc3n2)nc1	-82.42	-55.66
CCc1c(C)nc(-n2nc(-c3cccs3)cc2N)[nH]c1=O	62.91	-
O=C(O)C(F)(F)F.[H][C@@]12CN(CC(C)C)C[C@]1([H])C(=O)N(CC)C21CCN(C(=O)NC(C)C)CC1	-	10.72 and -2.25
CCn1ccc(-c2cc(NCCCOc3ccccc3C)nc(C)n2)n1	-	19.35
Cc1nc(N2CCCC(N3CCCC3)C2)c2cnn(C)c2n1 (centres undefined)	-1.477	-

For reference, 6 entries once more:

structure	Mtb glucose medium	Mtb cholesterol medium
Cn1cc(NC(=O)c2ccccn2)cc(Cl)c1=O	-	-8.821
CCN(Cc1cc(F)c(OC)c(Cl)c1)Cc1nc(COC)no1	21.34	-
c1cnnc(N2CCCC2CNCc2nc3ccccc3o2)c1 (centres undefined)	55.87	51.27
CC(=O)NCC(Cc1cccc(F)c1)n1cccc1 (centres undefined)	8.141 and 65.8	-
OCc1cc2ccccc2nc1N1CCCCC1	-13.24	-33.12
COc1cccc(CN(C)C(=O)c2csc(-c3nnc[nH]3)n2)c1	-	-6.483 and -5.001